Measurements published in PMC11852808.
Like-named read-outs stand apart in the source and are kept apart here.

Substance: protein VII: K2AK3A
- localisation_or_trafficking (acetylation at K2): increases
- localisation_or_trafficking (acetylation at K3): increases
